A mixed list of measured activities; the numbers were collected in NIAID ChemDB.

All rows: growth or infection tests; organism: Candida tropicalis

Blank or dashed fields: not listed here. MIC50, MIC90 and the like: level of inhibition, or share of isolates inhibited. Neighbouring rows are from separate reports.

structure,method,measure,conditions,strain,result
CCCCCCCCSc1ccnc(C(N)=S)c1,,MIC,,156,>500 µM
O=C1C=CC[C@H](/C=C/c2ccccc2)O1,broth dilution,MIC,,,>100 µg/mL
CCCSc1ccnc(C(N)=S)c1,,MIC,,156,250 µM
Cc1ccc(-c2c3c(N)c4c(nc3nc3c2c(C)nn3-c2ccccc2)CCCCC4)cc1,broth dilution / absorbance,MIC80,,CCC 131,125 µg/mL
CCCCCCCCCCCCCCCC(=O)NC(CCCCN)C(=O)NC(CCCCN)C(N)=O,broth dilution,MIC,,4795,2 µg/mL
CC(C)CSc1ccnc(C(N)=S)c1,,MIC,,156,>500 µM
O=C(c1ccccc1)C(c1ccccc1)n1nnc2ccccc21,broth dilution,MFC,,,>256 µg/mL
COc1ccc(-c2cc3cc(Cl)cnc3[nH]2)c(C)c1,,MIC100,,ATCC 201380,15.6 µg/mL
O=C(c1ccccc1)C(c1ccccc1)n1ccnc1,broth dilution,MFC,,,>256 µg/mL
COc1cc(/C=C2\SC(=S)NC2=O)ccc1OCC(O)(Cn1cncn1)c1ccc(F)cc1F,broth dilution,MIC50,,ATCC 750,16 µg/mL
C[C@H]1[C@H](O)[C@@H](C)/C=C/C=C/C=C/C=C/C=C/C=C/C=C/[C@H](O[C@@H]2O[C@H](C)[C@@H](O)[C@H](N)[C@@H]2O)C[C@@H]2O[C@](O)(C[C@@H](O)C[C@@H](O)CC[C@H](O)[C@@H](O)C[C@@H](O)CC(=O)O[C@H]1C)C[C@H](O)[C@H]2C(=O)O,,MIC100,,ATCC 201380,2.5 µg/mL
CCC(C)Sc1ccnc(C(N)=S)c1,,MIC,,156,250 µM
CN[C@H]1CC[C@@H](c2ccc(Cl)c(Cl)c2)c2ccccc21,broth dilution,MIC90,,MMRL2017,24 µg/mL
COc1ccc(-c2cc3cc(C)cnc3[nH]2)cc1,,MIC100,,ATCC 201380,15.6 µg/mL
Cc1nn2c(-c3ccncc3)nnc2s/c1=N/Nc1ccccc1,broth dilution,MIC,,ATCC 66029,25 µg/mL
O=C(N/N=C/c1ccc(C(F)(F)F)cc1)c1ccc(CNc2nc3ccccc3[nH]2)cc1,broth dilution,MIC,,,25 µg/mL
C[C@@H]([C@H](N)C(=O)N[C@H](C(=O)O)[C@H]1O[C@@H](n2ccc(=O)[nH]c2=O)[C@H](O)[C@@H]1O)[C@H](O)c1ccc(O)cn1,visual reading,MIC,,1525,>500 µg/mL
COc1ccc(C(c2ccc(OC)cc2)n2ccnc2)cc1,broth dilution,MFC,,,>256 µg/mL
CCCCCCCC/C=C\CCCCCCCC(=O)NCCCN,broth dilution,MIC,,ATCC 750,128 µg/mL
O=C(c1ccccc1)C(c1ccccc1)n1cncn1,broth dilution,MFC,,,128 µg/mL
Cc1ccc(-c2c3c(N)c4c(nc3nc3c2c(C)nn3-c2ccccc2)CCC4)cc1,broth dilution / absorbance,MIC100,,CCC 131,125 µg/mL
O=C(N/N=C/c1ccc(O)cc1)c1ccc(CNc2nc3ccccc3[nH]2)cc1,broth dilution,MIC,,,50 µg/mL
CCCCCCCCCCCC[n+]1cccc2ccccc21,broth dilution,MIC,24 h,156,0.01562 µg/mL
COc1ccc(C(c2ccc(OC)cc2)n2cncn2)cc1,agar,MIC90,,,>256 µg/mL
CCCCCCCSc1ccnc(C(N)=S)c1,,MIC,,156,>500 µM
CCOc1ccc(/C=N/NC(=O)c2ccc(CNc3nc4ccccc4[nH]3)cc2)cc1,broth dilution,MIC,,,50 µg/mL
Nc1ccc(O)c2ncccc12,,MIC,,Berkout KCCM 50662,0.8 µg/mL
Cn1cccc1-c1n[nH]c(=O)n1CCCCCCn1c(-c2cccn2C)n[nH]c1=O,,MIC,,,7.5 µg/mL
COc1cc(O)c2c(c1)C(=O)c1c(cc3c(c1O)-c1c(cc(C)c(C(=O)NC(CO)C(=O)O)c1O)[C@H](OC1OC(C)C(O)C(OC4OCC(O)C(O)C4O)C1O)C3O)C2=O,,MIC,,Isolate 93-231 fluconazole-resistant,8 µg/mL
C[C@H]1[C@H](O)[C@@H](C)/C=C/C=C/C=C/C=C/C=C/C=C/C=C/[C@H](O[C@@H]2O[C@H](C)[C@@H](O)[C@H](N)[C@@H]2O)C[C@@H]2O[C@](O)(C[C@@H](O)C[C@@H](O)CC[C@H](O)[C@@H](O)C[C@@H](O)CC(=O)O[C@H]1C)C[C@H](O)[C@H]2C(=O)O,broth dilution,MIC,,ATCC 760,0.5 µg/mL
COc1ccc(/C=N/O)cc1,,MIC,,,1650 µM
Cc1ccc(-c2c3c(N)c4c(nc3nc3c2c(C)nn3-c2ccccc2)CCCC4)cc1,broth dilution / absorbance,MIC100,,CCC 131,31.2 µg/mL
CCCCSc1ccnc(C(N)=S)c1,,MIC,,156,>500 µM
C=CCc1ccc(OC)c(OC)c1,turbidity,MIC90,,3219,345 µg/mL
CC(=O)NNC(=O)NCCCCCCNC(=O)NNC(C)=O,,MIC,,,7.5 µg/mL
Cc1nn2c(-c3ccncc3)nnc2sc1=NNc1ccc(Cl)cc1,broth dilution,MIC,,ATCC 66029,12.5 µg/mL
COc1cc(C2=C(c3ccc(F)cc3F)COC2=O)ccc1OCC(O)(Cn1cncn1)c1ccc(F)cc1F,broth dilution,MIC50,,ATCC 750,8 µg/mL
Clc1ccc(C(c2ccccc2)n2nnc3ccccc32)cc1,agar,MIC90,,,>256 µg/mL
O=c1[nH]nc(-c2ccccc2)n1CCCCCCn1c(-c2ccccc2)n[nH]c1=O,,MIC,,,7.5 µg/mL
CO/N=C/C(C)(C)C(O)(Cn1cncn1)c1ccc(Cl)cc1,visual reading,MIC,,53,1 µg/mL
Cc1ccc(N/N=c2/sc3nnc(-c4ccncc4)n3nc2C)cc1,broth dilution,MIC,,ATCC 66029,>100 µg/mL
CCC(C)n1ncn(-c2ccc(N3CCN(c4ccc(OC[C@H]5CO[C@](Cn6cncn6)(c6ccc(Cl)cc6Cl)O5)cc4)CC3)cc2)c1=O,,MIC,,Clinical isolates,0.306 µg/mL
Clc1ccc(C(c2ccccc2)N2CCN(CCn3ccnc3)CC2)cc1,broth dilution,MFC,,,>256 µg/mL